Broadly, the Km is the concentration of substrate that gives half-maximal velocity. The term kcat denotes the maximal rate divided by the concentration of active sites. One may read the kcat/Km as the second-order rate constant that governs catalysis at low substrate concentration.

In data set [1] the test system is Cc1cn([C@H]2C[C@H](O)[C@@H](COP(=O)(O)OP(=O)(O)O[C@H]3O[C@H](C)[C@H](O)[C@H](N)[C@H]3O)O2)c(=O)[nH]c1=O. Put plainly: purified protein. The conditions noted are these: 5 mM N10-formyl-THF, 50 mM HEPPS pH 8.0, 0.20 uM enzyme.
Data set [2] has as its system Cc1cn([C@H]2C[C@H](O)[C@@H](COP(=O)(O)OP(=O)(O)O[C@H]3O[C@H](C)[C@@H](O)[C@H](N)[C@H]3O)O2)c(=O)[nH]c1=O. Put plainly: purified protein. The following applies: 5 mM N10-formyl-THF, 50 mM HEPPS pH 8.0, 0.20 uM enzyme.

As for FdtF (Salmonella enterica; E395A), in data set [1], the Km is on record as 0.11 ± 0.01 mM, the kcat was 15.8 s⁻¹ and the specificity constant (kcat/Km) is 140000 M⁻¹ s⁻¹. Besides, in data set [2], the Km is 0.18 ± 0.02 mM, the kcat stood at 2.8 s⁻¹ and the kcat/Km was 16000 M⁻¹ s⁻¹.

(Values after PMC5581740.)
